Results of unrelated studies side by side (data: NIAID ChemDB).

Shared fields: toxicity to cultured cells; cells: BCBL-1; measure: CC50

Blank or dashed fields: not listed here. CCn: concentration that lowers growth or viability of the cells by n%. Conditions beyond the fields shown may differ between rows.

compound | method | result
O=c1[nH]c(=O)n([C@H]2C[C@H](O)[C@@H](CO)O2)cc1/C=C/Br | cell count | 138 µM
Nc1ncnc2c1ncn2/C=C1/CC1(CO)CO |  | 124 µM
Cn1cc(C(=O)NCc2ccc(Cl)cc2)c(=O)c2cc(CN3CCOCC3)ccc21 | MTS | >23.5 µM
CC(C)Nc1nc2cc(Cl)c(Cl)cc2n1[C@H]1O[C@@H](CO)[C@H](O)[C@@H]1O |  | >80 µM
Nc1nc(=O)n([C@H]2C[C@H](O)[C@@H](CO)O2)cc1/C=C/Cl | cell count | 184 µM
Nc1nc(NC2CC2)c2ncn(/C=C3/C[C@@H]3CO)c2n1 |  | 110 µM
O=C(NCc1ccc(Cl)cc1)c1cn2c3c(cc(CN4CCOCC4)cc3c1=O)OC(c1cccnc1)C2 | MTS | >18.8 µM
COc1nc(N)nc2c1ncn2/C=C1/CC1(CO)CO |  | 159 µM
Nc1ccn(C[C@@H](CO)OCP(=O)(O)O)c(=O)n1 |  | >159 µM
Nc1nc(=O)n([C@@H]2O[C@H](CO)[C@@H](O)[C@@H]2F)cc1I | cell count | 49 µM
CCCCCCCC/C=C\CCCCCCCCOCCOP(=O)(O)CO[C@H](CO)Cn1ccc(N)nc1=O |  | 1.7 µM
O=c1[nH]c(=O)n([C@@H]2O[C@H](CO)[C@@H](O)[C@@H]2O)cc1/C=C/Br | cell count | 340 µM
CCCCCCCCCCCCCCCCCOC[C@H](COP1(=O)CO[C@@H](Cn2ccc(N)nc2=O)CO1)OCc1ccccc1 |  | >1 µM
OC[C@H]1O[C@@H](n2c(Br)nc3cc(Cl)c(Cl)cc32)[C@H](O)[C@@H]1O |  | >125 µM
Nc1nc2c(ncn2/C=C2/CC2(CO)CO)c(=O)[nH]1 |  | 125 µM
CCCCCCCCCCCCCCCCCCOCCCOP1(=O)CO[C@@H](Cn2ccc(N)nc2=O)CO1 |  | >1 µM